{
  "sequences": {"note": "Amino acid sequences for entries named in this document (tags omitted).", "UniProt O15393, whole entry": "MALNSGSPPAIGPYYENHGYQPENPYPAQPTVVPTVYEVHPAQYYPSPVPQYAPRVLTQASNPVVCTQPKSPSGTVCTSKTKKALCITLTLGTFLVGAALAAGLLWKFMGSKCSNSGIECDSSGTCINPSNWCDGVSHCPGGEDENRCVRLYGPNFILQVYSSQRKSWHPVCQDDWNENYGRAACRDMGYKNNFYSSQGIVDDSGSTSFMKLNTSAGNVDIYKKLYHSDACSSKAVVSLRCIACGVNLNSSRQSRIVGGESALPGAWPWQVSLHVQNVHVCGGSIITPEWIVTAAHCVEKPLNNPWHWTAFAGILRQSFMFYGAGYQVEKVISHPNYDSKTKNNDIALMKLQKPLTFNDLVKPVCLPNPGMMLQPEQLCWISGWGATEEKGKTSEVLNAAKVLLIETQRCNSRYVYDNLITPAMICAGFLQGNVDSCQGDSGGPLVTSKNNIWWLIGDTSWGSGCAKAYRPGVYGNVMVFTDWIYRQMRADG"},
  "source": "paper PMC9270327",
  "about": "(Communications Biology, 2022)",
  "key": {"[1]": {"target": "T1, TMPRSS2 (Homo sapiens, UniProt O15393)"}, "[2]": {"target": "T1, TMPRSS2", "remark": "listed apart in the source"}},
  "note": "Where two headings read alike, the source gives them in different places.",
  "data": [
    {"molecule": "CC(=O)N[C@H](CCCNC(=N)N)C(=O)N[C@@H](CC1CCC1)C(=O)NC(CCCNC(=N)N)C(=O)c1nc2ccccc2s1", "note": "(stereo partly drawn)", "values": [
      {"measurement": "increase in Ki values against TMPRSS2", "setting": "[1]; incubation in human serum during the course of 10 days", "value": "1.4–1.8 fold"},
      {"measurement": "TMPRSS2 activity, Mean (0 nM = 100)", "setting": "[1]; inhibitor 0.0167 nM, 0 min in serum", "value": 99.4796},
      {"measurement": "TMPRSS2 activity, Mean (0 nM = 100)", "setting": "[1]; inhibitor 0.0167 nM, 30 min in serum", "value": 99.2942},
      {"measurement": "TMPRSS2 activity, Mean (0 nM = 100)", "setting": "[1]; inhibitor 0.0167 nM, 60 min in serum", "value": 100.1538},
      {"measurement": "TMPRSS2 activity, Mean (0 nM = 100)", "setting": "[1]; inhibitor 0.0167 nM, 120 min in serum", "value": 102.2488},
      {"measurement": "TMPRSS2 activity, Mean (0 nM = 100)", "setting": "[1]; inhibitor 0.0167 nM, 24 h in serum", "value": 99.6321},
      {"measurement": "TMPRSS2 activity, Mean (0 nM = 100)", "setting": "[1]; inhibitor 0.0167 nM, 10 d in serum", "value": 92.6772},
      {"measurement": "TMPRSS2 activity, Mean (0 nM = 100)", "setting": "[1]; inhibitor 0.167 nM, 0 min in serum", "value": 103.7358},
      {"measurement": "TMPRSS2 activity, Mean (0 nM = 100)", "setting": "[1]; inhibitor 0.167 nM, 30 min in serum", "value": 103.4579},
      {"measurement": "TMPRSS2 activity, Mean (0 nM = 100)", "setting": "[1]; inhibitor 0.167 nM, 60 min in serum", "value": 103.3236},
      {"measurement": "TMPRSS2 activity, Mean (0 nM = 100)", "setting": "[1]; inhibitor 0.167 nM, 120 min in serum", "value": 104.1407},
      {"measurement": "TMPRSS2 activity, Mean (0 nM = 100)", "setting": "[1]; inhibitor 0.167 nM, 24 h in serum", "value": 99.3926},
      {"measurement": "TMPRSS2 activity, Mean (0 nM = 100)", "setting": "[1]; inhibitor 0.167 nM, 10 d in serum", "value": 95.9836},
      {"measurement": "TMPRSS2 activity, Mean (0 nM = 100)", "setting": "[1]; inhibitor 1.665 nM, 0 min in serum", "value": 111.0273},
      {"measurement": "TMPRSS2 activity, Mean (0 nM = 100)", "setting": "[1]; inhibitor 1.665 nM, 30 min in serum", "value": 103.0953},
      {"measurement": "TMPRSS2 activity, Mean (0 nM = 100)", "setting": "[1]; inhibitor 1.665 nM, 60 min in serum", "value": 102.9116},
      {"measurement": "TMPRSS2 activity, Mean (0 nM = 100)", "setting": "[1]; inhibitor 1.665 nM, 120 min in serum", "value": 102.1015},
      {"measurement": "TMPRSS2 activity, Mean (0 nM = 100)", "setting": "[1]; inhibitor 1.665 nM, 24 h in serum", "value": 99.8014},
      {"measurement": "TMPRSS2 activity, Mean (0 nM = 100)", "setting": "[1]; inhibitor 1.665 nM, 10 d in serum", "value": 94.5670},
      {"measurement": "TMPRSS2 activity, Mean (0 nM = 100)", "setting": "[1]; inhibitor 16.65 nM, 0 min in serum", "value": 104.2295},
      {"measurement": "TMPRSS2 activity, Mean (0 nM = 100)", "setting": "[1]; inhibitor 16.65 nM, 30 min in serum", "value": 102.4089},
      {"measurement": "TMPRSS2 activity, Mean (0 nM = 100)", "setting": "[1]; inhibitor 16.65 nM, 60 min in serum", "value": 102.8072},
      {"measurement": "TMPRSS2 activity, Mean (0 nM = 100)", "setting": "[1]; inhibitor 16.65 nM, 120 min in serum", "value": 101.8353},
      {"measurement": "TMPRSS2 activity, Mean (0 nM = 100)", "setting": "[1]; inhibitor 16.65 nM, 24 h in serum", "value": 98.9897},
      {"measurement": "TMPRSS2 activity, Mean (0 nM = 100)", "setting": "[1]; inhibitor 16.65 nM, 10 d in serum", "value": 90.5858},
      {"measurement": "TMPRSS2 activity, Mean (0 nM = 100)", "setting": "[1]; inhibitor 166.5 nM, 0 min in serum", "value": 78.1855},
      {"measurement": "TMPRSS2 activity, Mean (0 nM = 100)", "setting": "[1]; inhibitor 166.5 nM, 30 min in serum", "value": 83.7337},
      {"measurement": "TMPRSS2 activity, Mean (0 nM = 100)", "setting": "[1]; inhibitor 166.5 nM, 60 min in serum", "value": 84.1180},
      {"measurement": "TMPRSS2 activity, Mean (0 nM = 100)", "setting": "[1]; inhibitor 166.5 nM, 120 min in serum", "value": 82.0211},
      {"measurement": "TMPRSS2 activity, Mean (0 nM = 100)", "setting": "[1]; inhibitor 166.5 nM, 24 h in serum", "value": 82.2052},
      {"measurement": "TMPRSS2 activity, Mean (0 nM = 100)", "setting": "[1]; inhibitor 166.5 nM, 10 d in serum", "value": 81.1301},
      {"measurement": "TMPRSS2 activity, Mean (0 nM = 100)", "setting": "[1]; inhibitor 1665 nM, 0 min in serum", "value": 25.5237},
      {"measurement": "TMPRSS2 activity, Mean (0 nM = 100)", "setting": "[1]; inhibitor 1665 nM, 30 min in serum", "value": 32.2152},
      {"measurement": "TMPRSS2 activity, Mean (0 nM = 100)", "setting": "[1]; inhibitor 1665 nM, 60 min in serum", "value": 26.3198},
      {"measurement": "TMPRSS2 activity, Mean (0 nM = 100)", "setting": "[1]; inhibitor 1665 nM, 120 min in serum", "value": 32.8991},
      {"measurement": "TMPRSS2 activity, Mean (0 nM = 100)", "setting": "[1]; inhibitor 1665 nM, 24 h in serum", "value": 36.4597},
      {"measurement": "TMPRSS2 activity, Mean (0 nM = 100)", "setting": "[1]; inhibitor 1665 nM, 10 d in serum", "value": 42.2774},
      {"measurement": "TMPRSS2 activity, Mean (0 nM = 100)", "setting": "[2]; inhibitor 0.0167 nM, 0 min in plasma", "value": 107.855},
      {"measurement": "TMPRSS2 activity, Mean (0 nM = 100)", "setting": "[2]; inhibitor 0.0167 nM, 30 min in plasma", "value": 131.865},
      {"measurement": "TMPRSS2 activity, Mean (0 nM = 100)", "setting": "[2]; inhibitor 0.0167 nM, 60 min in plasma", "value": 100.212},
      {"measurement": "TMPRSS2 activity, Mean (0 nM = 100)", "setting": "[2]; inhibitor 0.0167 nM, 120 min in plasma", "value": 88.1855},
      {"measurement": "TMPRSS2 activity, Mean (0 nM = 100)", "setting": "[2]; inhibitor 0.0167 nM, 24 h in plasma", "value": 94.7157},
      {"measurement": "TMPRSS2 activity, Mean (0 nM = 100)", "setting": "[2]; inhibitor 0.0167 nM, 10 d in plasma", "value": 98.6379},
      {"measurement": "TMPRSS2 activity, Mean (0 nM = 100)", "setting": "[2]; inhibitor 0.167 nM, 0 min in plasma", "value": 110.607},
      {"measurement": "TMPRSS2 activity, Mean (0 nM = 100)", "setting": "[2]; inhibitor 0.167 nM, 30 min in plasma", "value": 112.031},
      {"measurement": "TMPRSS2 activity, Mean (0 nM = 100)", "setting": "[2]; inhibitor 0.167 nM, 60 min in plasma", "value": 97.9191},
      {"measurement": "TMPRSS2 activity, Mean (0 nM = 100)", "setting": "[2]; inhibitor 0.167 nM, 120 min in plasma", "value": 84.3747},
      {"measurement": "TMPRSS2 activity, Mean (0 nM = 100)", "setting": "[2]; inhibitor 0.167 nM, 24 h in plasma", "value": 93.6852},
      {"measurement": "TMPRSS2 activity, Mean (0 nM = 100)", "setting": "[2]; inhibitor 0.167 nM, 10 d in plasma", "value": 98.6274},
      {"measurement": "TMPRSS2 activity, Mean (0 nM = 100)", "setting": "[2]; inhibitor 1.665 nM, 0 min in plasma", "value": 106.886},
      {"measurement": "TMPRSS2 activity, Mean (0 nM = 100)", "setting": "[2]; inhibitor 1.665 nM, 30 min in plasma", "value": 113.164},
      {"measurement": "TMPRSS2 activity, Mean (0 nM = 100)", "setting": "[2]; inhibitor 1.665 nM, 60 min in plasma", "value": 99.5905},
      {"measurement": "TMPRSS2 activity, Mean (0 nM = 100)", "setting": "[2]; inhibitor 1.665 nM, 120 min in plasma", "value": 86.7927},
      {"measurement": "TMPRSS2 activity, Mean (0 nM = 100)", "setting": "[2]; inhibitor 1.665 nM, 24 h in plasma", "value": 94.0926},
      {"measurement": "TMPRSS2 activity, Mean (0 nM = 100)", "setting": "[2]; inhibitor 1.665 nM, 10 d in plasma", "value": 97.9533},
      {"measurement": "TMPRSS2 activity, Mean (0 nM = 100)", "setting": "[2]; inhibitor 16.65 nM, 0 min in plasma", "value": 102.887},
      {"measurement": "TMPRSS2 activity, Mean (0 nM = 100)", "setting": "[2]; inhibitor 16.65 nM, 30 min in plasma", "value": 109.553}
    ]}
  ]
}
